Results as given in PMC11856326, “Structure-activity studies of bispyridinium antinicotinics to select candidates to treat soman intoxication as part of a combined therapy” (2025).

Experiments:
[1] = tested on: soman-poisoned guinea pig diaphragm; test: Diaphragm muscle assay: recovery of tetanic response in soman-poisoned phrenic nerve-hemidiaphragm
[2] = tested on: guinea-pigs challenged with soman, sarin or tabun; details: in combination with physostigmine and hyoscine; equimolar doses; cited from earlier work

SMILES | protection against tabun in guinea pigs [2] | other results
CC(C)(C)c1cc[n+](CCC[n+]2ccc(C(C)(C)C)cc2)cc1 |  | recovery of neuromuscular function (tetanus and twitch responses) ([1]; soman 100 nM, compounds at 10, 30 and 100 µM cumulatively, n = 4): maximum recovery
CC(C)(C)c1cc[n+](CCC[n+]2ccc(C(C)(C)C)cc2)cc1.CS(=O)(=O)[O-].CS(=O)(=O)[O-] | good protection | 
NC(=O)c1cc[n+](COC[n+]2ccccc2/C=N/O)cc1 | insufficient to provide protection | 
c1cc[n+](CCCCC[n+]2ccccc2)cc1 |  | concentrations that inhibited the response ([1]; broader concentration range, soman-poisoned diaphragm): over 300 µM
